Measured values from several laboratories, pooled; numbers as filed in NIAID ChemDB.

Shared fields: growth or infection tests; organism: HIV-1; read by: p24; endpoint: EC50

Blank or dashed fields: not listed here.

structure,cell line,mutations,strain,result
S=C(NCCc1cccs1)Nc1ccc(Br)cn1,PBMC,,H112-2 Clinical isolate,0.009 µM
Cc1cn([C@H]2C[C@H](N=[N+]=[N-])[C@@H](CO)O2)c(=O)[nH]c1=O,PBMC,RT-M41L T215Y,S762-4 Clinical isolate ZDV-resistant,1.2 µM
Nc1ncnc2c1ncn2[C@@H]1O[C@H](CO)C[C@@H]1F,MT-2,RT-P119S V179D L214F,RT P119S V179D L214F,20 µM
CC(C)Nc1cccnc1N1CCN(C(=O)c2cc3cc(NS(C)(=O)=O)ccc3[nH]2)CC1,H9,RT-K101I K103N Y181C G190A,B8 (RT K101I K103N Y181C G190A),>10 µg/mL
Cc1cc(C#N)cc(C)c1Oc1nc(Nc2ccc(C#N)cc2)nc(N)c1Br,PBMC,,IIIB,0.002 µM
Cc1cn([C@H]2C[C@H](N=[N+]=[N-])[C@@H](CO)O2)c(=O)[nH]c1=O,MT-2,,NL4-3,0.006 µM
O=c1[nH]cnc2c1ncn2[C@H]1CC[C@@H](CO)O1,MT-2,RT-A62V V75I F77L F116Y Q151M,RT A62V/V75I/F77L/F116Y/Q151M,20 µM
CCO/N=C(\c1ccc(Br)cc1)C1CCN(C2(C)CCN(C(=O)c3c(C)cc[n+]([O-])c3C)CC2)CC1,PBMC,,R5-08 R5 clinical isolate,0.0087 µM
Nc1ccn([C@H]2CC[C@@H](CO)O2)c(=O)n1,MT-2,RT-K65R,K65R(RT-K65R),1.3 µM
CC(C)(C)NC(=O)[C@@H]1C[C@@H]2CCCC[C@@H]2CN1C[C@@H](O)[C@H](Cc1ccccc1)NC(=O)[C@H](CC(N)=O)NC(=O)c1ccc2ccccc2n1,PBMC,PR-L10I K20R M36I/V P63L/S L90M,BR58 (PR L10I K20R M36I/V P63L/S L90M),0.006 µM
O=c1[nH]cnc2c1ncn2[C@H]1CC[C@@H](CO)O1,MT-4,RT-T69SSS L210W T215Y,XM-T69SSS,<8.8 µM
C[C@H](Cn1cnc2c(N)ncnc21)OCP(=O)(O)O,MT-2,RT-D67N K70R T215F K219Q,G910-6 AZT-resistant (RT D67N K70R T215F K219Q),0.6 µM
CC(=O)N1CCC(C(=O)N(CCCN2CCC(Cc3ccc(C(N)=O)cc3)CC2)c2ccc(C)c(Cl)c2)CC1,PBMC,,HNK R5 clinical isolate,0.0017 µM
CC(C)(C)NC(=O)[C@@H]1C[C@@H]2CCCC[C@@H]2CN1C[C@@H](O)[C@H](Cc1ccccc1)NC(=O)[C@H](CC(N)=O)NC(=O)c1ccc2ccccc2n1,MT-4,PR-M46I I84V,NL4-3-P28 (PR M46I I84V),<0.16 µM
C[C@H]1/C=C/[C@@]2(C)CC[C@@H](C(C)(C)O)[C@@H]2[C@@H](O)C[C@](C)(O)/C=C/C1,PBMC,,95BRRJ021 R5,<25 µM
Nc1ccn([C@@H]2CO[C@H](CO)S2)c(=O)n1,C8166,RT-M184I,RF,28 µM
N#Cc1ccc(-n2ccc(CN3CCN(C[C@@H](O)C[C@@H](Cc4cccnc4)C(=O)N[C@H]4c5ccccc5OC[C@H]4O)[C@H](C(=O)NCC(F)(F)F)C3)c2)cc1,MT-4,PR-L10I M46I I54V Q58E L63P I64V V77I V82F I84V L90M I93L,K-60C Clinical isolate,<0.125 µM
Cc1cn([C@H]2C[C@H](N=[N+]=[N-])[C@@H](CO)O2)c(=O)[nH]c1=O,,,CC9 Clinical isolates,0.01 µM
O=C(N[C@H]1c2ccccc2OC[C@H]1O)[C@H](Cc1cccnc1)C[C@H](O)CN1CCN(Cc2ccn(-c3ccccc3Cl)c2)C[C@H]1C(=O)NCC(F)(F)F,MT-4,PR-L10I M46I I54V Q58E L63P I64V V77I V82F I84V L90M I93L,K-60C Clinical isolate,<0.062 µM
COC(=O)[C@H](C)NP(=O)(OC[C@@H]1C=C[C@H](n2cc(C)c(=O)[nH]c2=O)O1)Oc1ccc(Br)cc1,PBMC,RT-M41L T215Y,R416-10 Clinical isolate ZDV-resistant,0.0002 µM
S=C(NCCc1cccs1)Nc1ccc(Br)cn1,PBMC,,IIIB,0.03 µM
O=c1[nH]cnc2c1ncn2[C@H]1CC[C@@H](CO)O1,MT-4,,HXB2D,17 µM
Nc1ccn([C@H]2CC[C@@H](CO)O2)c(=O)n1,MT-4,,IIIB,0.45 µM
Nc1ncnc2c1ncn2CCOCP(=O)(O)O,C8166,RT-K65R,RF,4 µM
O=C(N[C@H]1c2ccccc2OC[C@H]1O)[C@H](Cc1cccnc1)C[C@H](O)CN1CCN(Cc2ccn(-c3ccc(F)cc3)c2)C[C@H]1C(=O)NCC(F)(F)F,MT-4,PR-L10I M46I I54V Q58E L63P I64V V77I V82F I84V L90M I93L,K-60C Clinical isolate,<0.015 µM
O=c1[nH]cnc2c1ncn2[C@H]1CC[C@@H](CO)O1,PBMC,RT-V75I,Recombinant,0.4 µM
Cc1cn([C@H]2C[C@H](N=[N+]=[N-])[C@@H](CO)O2)c(=O)[nH]c1=O,PBL,,ddI-resistant,0.001 µM
Cc1cn([C@H]2C[C@H](N=[N+]=[N-])[C@@H](CO)O2)c(=O)[nH]c1=O,PBMC,RT-V35T E40D K173T R211K L214F,G3 R5 subtype G/- (env/gag),0.006 µM
Nc1ccn([C@H]2CC[C@@H](CO)O2)c(=O)n1,PBMC,RT-T215Y K219Q,,0.09 µM
CC(C)(C)NC(=O)[C@@H]1C[C@@H]2CCCC[C@@H]2CN1C[C@@H](O)[C@H](Cc1ccccc1)NC(=O)[C@H](CC(N)=O)NC(=O)c1ccc2ccccc2n1,MT-2,,RF,0.002 µM
Cc1cn([C@H]2C[C@H](N=[N+]=[N-])[C@@H](CO)O2)c(=O)[nH]c1=O,PBMC,,HXB2 WT,0.002 µM
Cc1ccnc2c1NC(=O)c1cccnc1N2C1CC1,PBMC,RT-Y181C,NRTI resistant (RT Y181C) A17,>100 µM
Cc1cn([C@H]2C[C@H](N=[N+]=[N-])[C@@H](CO)O2)c(=O)[nH]c1=O,Macrophage + Monocytes/macrophages,,Primary clinical isolate Rome,<3.7 µM
COc1ccc2c(c1)N(C(=O)OC(C)C)[C@@H](CSC)C(=S)N2,CEM,RT-M184V,IIIB,0.003 µg/mL
C[C@@H](NC(=S)Nc1ccc(Br)cn1)c1cccc2ccccc12,PBMC,RT-Y181C,NNRTI-resistant (RT Y181C) A17,0.105 µM
COC(=O)[C@H](C)NP(=O)(OC[C@@H]1C=C[C@H](n2cc(C)c(=O)[nH]c2=O)O1)Oc1ccc(Br)cc1,PBMC,RT-T69K K70G V75I F77L F116Y Q151M M184V,56252-1 NRTI resistant recombinant,0.025 µM
Nc1ccn([C@@H]2CS[C@H](CO)O2)c(=O)n1,PBMC,RT-V75I F77L Q151M,Recombinant,0.08 µM
CC(C)=CCN1Cc2cccc3[nH]c(=S)n(c23)C[C@@H]1C,PBMC,RT-E89G,RT-M184V,0.02 µM
Cc1occc1C(=S)Nc1ccc(Cl)c(/C=N/OC(C)(C)C)c1,CEM,RT-L100I,IIIB,0.085 µg/mL
Cc1csc(NC(=S)N[C@H](C)c2cccc3ccccc23)n1,PBMC,,IIIB,0.001 µM
CC(C)Nc1cccnc1N1CCN(C(=O)c2cc3cc(NS(C)(=O)=O)ccc3[nH]2)CC1,H9,,IIIB,0.006 µM
Cc1cn([C@H]2C[C@H](N=[N+]=[N-])[C@@H](CO)O2)c(=O)[nH]c1=O,PBMC,RT-T69SSS L210W T215Y,XM-T69SSS,<56 µM
C[C@H](CNC(=S)Nc1ccc(Cl)cn1)c1ccccc1,PBMC,,IIIB,0.038 µM
Cc1cn([C@H]2C[C@H](N=[N+]=[N-])[C@@H](CO)O2)c(=O)[nH]c1=O,PBMC,,C081590,0.01 µM
O=C(N[C@H]1c2ccccc2OC[C@H]1O)[C@H](Cc1cccnc1)C[C@H](O)CN1CCN(Cc2ccn(-c3ccccc3F)c2)C[C@H]1C(=O)NCC(F)(F)F,MT-4,PR-L10I M46I I54V Q58E L63P I64V V77I V82F I84V L90M I93L,K-60C Clinical isolate,<0.062 µM
O=c1[nH]cnc2c1ncn2[C@H]1CC[C@@H](CO)O1,PBL,,LAV,1.2 µM
Cc1cn([C@H]2C[C@H](N=[N+]=[N-])[C@@H](CO)O2)c(=O)[nH]c1=O,PBMC,,HXB2,0.002 µM
Cc1ccnc2c1NC(=O)c1cccnc1N2C1CC1,H9,RT-L100I V106A G190A,B9 (RT L100I V106A G190A),>10 µg/mL
Cc1ccnc2c1NC(=O)c1cccnc1N2C1CC1,CEM,RT-M184V,IIIB,0.07 µg/mL
CC(C)CN(C[C@@H](O)[C@H](Cc1ccccc1)NC(=O)[C@H](CC(N)=O)NC(=O)c1ccc2ccccc2n1)C(=O)NC(C)(C)C,MT-2,,RF,0.01 µM
Cc1cn([C@@H]2O[C@H](CO[Si](C)(C)C(C)(C)C)C3(OS(=O)(=O)C=C3N)[C@H]2O[Si](C)(C)C(C)(C)C)c(=O)n(C)c1=O,CEM,RT-G190E,IIIB,>50 µg/mL
CCc1cc(NCc2nc3c(Cl)ccc(Cl)c3o2)c(=O)[nH]c1C,MT-4,RT-V179D,NL4-3,0.4 µM
Cc1cn([C@H]2C[C@H](N=[N+]=[N-])[C@@H](CO)O2)c(=O)[nH]c1=O,MT-2,RT-A62V V75I F77L F116Y Q151M,RT A62V/V75I/F77L/F116Y/Q151M,2.1 µM
CC(C)(C)OC(=O)N[C@@H](Cc1ccccc1)[C@H](O)CNC[C@@H](O)[C@H](Cc1ccccc1)NC(=O)OC(C)(C)C,MT-2,,RF,0.06 µM
Cc1ccc(NC(=O)Nc2ccc(-c3ccc(NC(=O)Nc4ccc(-c5ccc(NC(=O)Nc6ccc(-c7ccc(NC(=O)Nc8ccc(-c9ccc(NC(=O)Nc%10ccc(C)cc%10)cc9S(=O)(=O)O)c(S(=O)(=O)O)c8)cc7S(=O)(=O)O)c(S(=O)(=O)O)c6)cc5S(=O)(=O)O)c(S(=O)(=O)O)c4)cc3S(=O)(=O)O)c(S(=O)(=O)O)c2)cc1,JM,,GB8,1.9 µM
C[C@H](CNC(=S)Nc1ccc(Br)cn1)c1ccccc1,PBMC,RT-Y181C,NNRTI-resistant (RT Y181C) A17,1.18 µM
CC(C)[C@H](NC(=O)c1ccc2ccccc2n1)C(=O)N[C@@H](Cc1ccccc1)[C@H](O)CN1CC[C@@H](OCc2ccncc2)C[C@H]1C(=O)NC(C)(C)C,H9,,IIIB,0.002 µM

ECn is the concentration giving n% inhibition of infection, replication or growth. Conditions beyond the fields shown may differ between rows.